Measurements reported in PubChem BioAssay AID624099 (ICCB-Longwood, 2012)
The whole screen tested about 21,000 reagents; this is an unselected part. Of all reagents, 497 (2.4%) are marked active. 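Higher z means weaker E2 silencing; only reporter increases were scored, and knock-downs that hurt cell survival may mask genuine repressor factors.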 Reagents against one gene are numbered here. Reagent sequences are not shown.

- Test: 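Host factors E2 relies on to silence an HPV18 LCR reporter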 (primary screen)
- System: human C33A cervical carcinoma cells (HPV-negative) stably expressing BPV1 E2 and an HPV18 LCR luciferase reporter
- Knock-down reagent: siRNA pool against human genes, 40 nM
- Timing: 72 h
- Detection: 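HPV18 LCR reporter light per well, converted to plate-wise z-scores that exclude control wells, and averaged over triplicate plates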
- Reading the numbers: mean z-score and z-score: higher = stronger reporter signal, weaker E2 silencing
- Active means: 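Mean z ≥ 2 together with z ≥ 2 in two or more of the three replicates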

The opening 2 entries as a preview:
gene symbol	reagent no.	mean z-score	z-score, replicate A	z-score, replicate B	z-score, replicate C	Call
TGFB1I1	1	-0.11	0.07	-0.3	-0.09	inactive
LYPD4	1	0.82	0.66	0.99	0.8	inactive

The list itself, from the start:
gene symbol	reagent no.	mean z-score	z-score, replicate A	z-score, replicate B	z-score, replicate C	Call
TGFB1I1	1	-0.11	0.07	-0.3	-0.09	inactive
LYPD4	1	0.82	0.66	0.99	0.8	inactive
RGS19	1	1.38	1.47	1.43	1.23	inactive
ELP3	1	1.39	1.29	1.37	1.52	inactive
ZPLD1	1	-0.91	-1.03	-0.76	-0.93	inactive
HERC1	1	-0.29	-0.68	-0.1	-0.09	inactive
ITGB2	1	1.31	1.25	1.42	1.25	inactive
KRTAP3-1	1	-0.06	-0.08	-0.03	-0.08	inactive
CD3E	1	0.44	0.22	0.61	0.48	inactive
PLEKHB1	1	0.59	1.16	0.6	0.01	inactive
PAX4	1	1.01	1.12	0.96	0.94	inactive
PEAR1	1	0.74	0.9	0.51	0.81	inactive
DGCR6L	1	-1.98	-1.96	-2.18	-1.81	inactive
ARHGEF28	1	-0.09	-0.03	-0.24	0	inactive
TGIF1	1	-0.98	-0.97	-0.98	-0.99	inactive
SNX29	1	0.03	0.04	-0.02	0.08	inactive
SNX29	2	-1.13	-0.88	-1.19	-1.33	inactive
TRIM28	1	-1.18	-1.03	-1.09	-1.41	inactive
SPEF2	1	0.56	0.07	0.71	0.89	inactive
IGSF11	1	-0.29	-0.59	-0.17	-0.12	inactive
CHSY1	1	0.4	0.62	0.13	0.45	inactive
CRISPLD2	1	-0.22	-0.37	-0.3	0.01	inactive
TRPS1	1	0.06	0.03	0	0.15	inactive
CFAP97D1	1	-0.84	-0.81	-0.8	-0.92	inactive
THRSP	1	0.89	0.73	0.68	1.26	inactive
LARP4B	1	-0.7	-0.69	-0.48	-0.93	inactive
SLC25A3	1	-0.11	0.09	-0.35	-0.06	inactive
USF1	1	0.1	0.4	0.13	-0.24	inactive
PIN1	1	-0.33	-0.38	-0.32	-0.3	inactive
ADGRL4	1	-1.22	-1.41	-1.16	-1.1	inactive
DKFZP586I1420	1	-0.75	-0.84	-0.52	-0.88	inactive
LOC401442	1	0.37	0.11	0.44	0.58	inactive
ZMYM5	1	0.45	0.43	0.54	0.39	inactive
MLH3	1	-0.24	-0.18	-0.29	-0.26	inactive
ASGR2	1	0.78	0.99	0.78	0.58	inactive
AJM1	1	-0.6	-0.68	-0.31	-0.81	inactive
PSMA2	1	0.48	0.69	0.77	-0.02	inactive
PRO2964 (retired record)	1	-0.26	0.11	-0.27	-0.62	inactive
WDR93	1	-0.98	-0.72	-0.92	-1.28	inactive
